# Measurements reported in PubChem BioAssay AID504761 (Drosophila RNAi Screening Center, 2011)
# Test: 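Genome-wide fly cell screen for genes dengue virus requires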 (primary screen)
# System: D.Mel-2 cells from Drosophila
# Reagents: long dsRNA against Drosophila genes
# Treatment: infection with dengue virus type 2; dose and infection time not stated
# Read-out: 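Cells stained for dengue envelope protein and imaged; percent of infected cells per well on duplicate plates, ranked by infection, with stained nuclei counted for cell number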
# Direction: infection score: higher = more virus-infected cells; cell count: higher = more cells in the well
# Rule for the call: 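Very low infection ranking in both replicate wells (chance probability at most 0.065), then a retest showing infection dropped 1.5-fold or more at p below 0.05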
# Calls: active = confirmed: knock-down lowers infection; inactive = not picked or not confirmed
# The deposit covers about 22,000 reagents; below is a random part of those that have a named target and a result. In the full data, 116 (0.52%) are marked active. 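Calls depend on retest data that are not deposited; infection was ranked per plate without normalising between plates; the unit of the infection score is not given.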 The raw values are shown without normalisation. A number with no mark means an inactive call. Names joined by + are all predicted targets of the reagent. Not stated in the record: the amount of reagent, the time to read-out.
predicted target,dsRNA,"infection score, replicate 1","infection score, replicate 2","cell count, replicate 1","cell count, replicate 2"
CG32022,DRSC09678,0.73,0.35,6405,6839
CTCF,DRSC11004,3.28,1.17,6312,6497
CTCF,DRSC28022,14.8,21.8,2304,3621
l(2)k01209 (lethal (2) k01209),DRSC06889,12.2,7.03,4609,5819
l(2)k01209 (lethal (2) k01209),DRSC29673,,3.73,391,1660
CG14174,DRSC10175,1.84,2.75,5992,6443
CG12470,DRSC18620,1.02,2.3,6548,6730
CG42557 + CG42558,DRSC13963,8.87,8.81,6124,6130
CG42557 + CG42558,DRSC16329,4.83,3.25,6206,6731
CG31642,DRSC02919,1.68,0.81,6064,6200
CG31642,DRSC26391,1.43,1.76,6414,6310
Fatp3 (Fatty acid transport protein 3),DRSC04366,1.21,3.95,6107,6298
Fatp3 (Fatty acid transport protein 3),DRSC29135,,,350,291
SLC22A (SLC22A family member),DRSC11826,6.55,8.96,6461,6359
SLC22A (SLC22A family member),DRSC11827,2.65,7.4,6753,6445
CNPYb (Canopy b),DRSC09845,13,18.3,7002,4320
CG32639,DRSC18972,1.51,3.94,6428,6240
CG8272,DRSC07134,18.4,15.1,6068,6527
CG3699,DRSC18171,8.8,2.16,4650,6195
CG3699,DRSC18642,1.9,0.56,5848,6199
Gpat4 (Glycerol-3-phosphate acyltransferase 4),DRSC04345,25.7,19.5,5702,5848
CG8141,DRSC16387,3.16,1.75,6388,6807
Alp5 (Alkaline phosphatase 5),DRSC14269,5.64,8.97,6118,6590
Alp5 (Alkaline phosphatase 5),DRSC29539,22.4,7.83,5984,1519
CG12723,DRSC19499,1.54,3.91,6577,7029
CG12723,DRSC26290,7.33,9.19,6047,6310
CG34266,DRSC08323,3.78,5.26,6140,5473
mRpL54 (mitochondrial ribosomal protein L54),DRSC04545,21.7,16.2,6190,6108
CG9263,DRSC03176,3.22,5.44,6583,7004
MstProx,DRSC12458,1.65,3.63,6418,6608
MstProx,DRSC12601,7.15,5.95,6570,6534
RpS21 (Ribosomal protein S21),DRSC00833,3.11,5.89,6213,5844
RpS21 (Ribosomal protein S21),DRSC28234,4.1,14.5,634,1603
clt (cricklet),DRSC04621,5.81,11.4,6285,6326
pen-2 (presenilin enhancer),DRSC05722,4.46,1.95,5648,5382
CG43689,DRSC22467,8.03,4.11,6652,6735
CG43689,DRSC23070,1.49,6.34,6161,6203
CG43689,DRSC26563,2.44,0.74,5564,5419
CG7514,DRSC08597,1.08,0.97,6086,6395
CG7514,DRSC25670,4.67,8.88,7069,5596
azot (ahuizotl),DRSC06051,4.77,7,6075,2285
azot (ahuizotl),DRSC25443,4.84,5.14,5907,6203
CG9344,DRSC04541,8.5,8.09,6620,5837
Samtor (S-adenosylmethionine sensor upstream of TORC1),DRSC04390,2.98,16.2,6243,4949
Samtor (S-adenosylmethionine sensor upstream of TORC1),DRSC24231,1.59,1.13,6418,6308
CG13506,DRSC04150,9.7,16.5,5948,6819

10 consecutive entries from above, quoted:
predicted target,dsRNA,"infection score, replicate 1","infection score, replicate 2","cell count, replicate 1","cell count, replicate 2"
mRpL54 (mitochondrial ribosomal protein L54),DRSC04545,21.7,16.2,6190,6108
CG9263,DRSC03176,3.22,5.44,6583,7004
MstProx,DRSC12458,1.65,3.63,6418,6608
MstProx,DRSC12601,7.15,5.95,6570,6534
RpS21 (Ribosomal protein S21),DRSC00833,3.11,5.89,6213,5844
RpS21 (Ribosomal protein S21),DRSC28234,4.1,14.5,634,1603
clt (cricklet),DRSC04621,5.81,11.4,6285,6326
pen-2 (presenilin enhancer),DRSC05722,4.46,1.95,5648,5382
CG43689,DRSC22467,8.03,4.11,6652,6735
CG43689,DRSC23070,1.49,6.34,6161,6203

Further reagents follow.
predicted target,dsRNA,"infection score, replicate 1","infection score, replicate 2","cell count, replicate 1","cell count, replicate 2"
Gk1 (Glycerol kinase 1),DRSC08533,3.36,12.2,6587,5244
Gk1 (Glycerol kinase 1),DRSC08534,10.1,4.52,6060,6132
CtsL1 (Cathepsin L1),DRSC05462,5.98,2.49,6142,6340
CtsL1 (Cathepsin L1),DRSC07363,34.9,23.7,5185,5826
CtsL1 (Cathepsin L1),DRSC29071,6.23,20.5,1075,5624
CG5478,DRSC15814,2.79,3.45,6494,6406
Parp16 (Poly(ADP-ribose) polymerase 16),DRSC06597,10.1,18.5,6384,6431
Parp16 (Poly(ADP-ribose) polymerase 16),DRSC27048,3.65,4.76,6217,6216
Klp98A (Kinesin-like protein at 98A),DRSC16724,,8.95,279,4255
Klp98A (Kinesin-like protein at 98A),DRSC21834,6.13,2.46,6574,6638
mask (multiple ankyrin repeats single KH domain),DRSC15370,6.66,2.64,1337,5986
mask (multiple ankyrin repeats single KH domain),DRSC16005,1.83,3.34,6238,6161
mask (multiple ankyrin repeats single KH domain),DRSC16018,4.37,5.69,6357,6100
mask (multiple ankyrin repeats single KH domain),DRSC25063,12.6,7.78,6110,5435
bnl (branchless),DRSC13377,1.5,1.95,5925,4722
bnl (branchless),DRSC23212,0.65,1.27,6614,6914
bnl (branchless),DRSC29056,2.19,3.46,731,5807
Nasp (Nuclear autoantigenic sperm protein),DRSC27430,21.9,14.9,6656,6422
CG3916,DRSC15520,16.2,5.38,5873,7235
CG3916,DRSC26907,9.26,10.4,6428,6623
RhoGEF2 (Rho guanine nucleotide exchange factor 2),DRSC07531,8.91,7.68,5969,6358
RhoGEF2 (Rho guanine nucleotide exchange factor 2),DRSC29373,5.77,10.3,1421,5578
Sptr (Sepiapterin reductase),DRSC18719,0.65,0.19,6456,6246
CG30158,DRSC04956,2.78,0.96,5872,5643
CG30158,DRSC04974,14.2,,2458,412
CG30158,DRSC04975,,,439,461
CG30158,DRSC05012,,,468,418
Cyp4e3 (Cytochrome P450 4e3),DRSC03306,12.6,16.8,5689,5433
Cyp4e3 (Cytochrome P450 4e3),DRSC26425,1.82,0.81,5374,6647
